Some of the results follow. Env chains of viruses from a treatment-interruption trial, translated from the printed DNA. IC50 / IC80 of two broadly neutralizing antibodies; lower = more sensitive virus; >50 µg/ml means not reached and <0.001 µg/ml is below the lowest dose. No active / inactive call.
Key:
[1] = biological target: antibody 10-1074; experiment: neutralization IC50; higher = virus less sensitive to the antibody
Procedure: (§1)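 Pseudovirus bearing the Env chain mixed with antibody, from 50 µg/ml in fivefold dilutions, on TZM-bl reporter cells, in duplicate.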

[2] = biological target: antibody 3BNC117; experiment: as above
Procedure: as §1

[3] = biological target: antibody 10-1074; experiment: neutralization IC80; higher = virus less sensitive to the antibody
Procedure: as §1

[4] = biological target: antibody 3BNC117; experiment: as above
Procedure: as §1

Row | Binder | neutralization IC50 [1] [µg/mL] | neutralization IC50 [2] [µg/mL] | neutralization IC80 [3] [µg/mL] | neutralization IC80 [4] [µg/mL]
1 | HIV-1 Env, rebound clone, antibody arm (protein) MRVRGMLRNWQHLEKWGLLFLGLLIICSAKENLWVTVYYGVPVWKEATTTLFCASDAKGYEKEAHNVWATHACVPTDPNPQEIGLENVTENFNMWKNDMVEQMHTDIISLWDESLKPCVKITPLCVTLNCTDYCTTNCSQANDSSILEERKALQNCSFNMTTVVRDKKQKVSALFYRLDLTPLNNNNSSTEYRLITCNTSTITQACPKVSWDPIPIHYCAPAGYAILKCRDKKFNGTGPCKNVSTVQCTHGIKPVVSTQLLLNGSLAEEDIVIRSANISDNTKAIIVSLNESVLINCTRPNNNTRKGIHLGPGQTLYAAGEIVGNIRQAHCSISGTQWNKTLERVRTKLSSLINKTIIFKPPVGGDLEVTMHSFTCRGEFFYCNTSGLFSESGNNSTSSNETIITLPCKIKQIINMWQGVGRAMYAPPIEGTITCNSNITGLLLTRDGGNNGTNDTFRPGGGDMRDNWRSELYKYKVVEIEPLGVAPTRARRQVVRRERRAVGIGAVFLGFLGAAGSTMGAASITLTVQARQLLSGIVQQQSNLLKAIEAQQHLLKLTVWGIKQLQARVLAVERYLKDQQLLGIWGCSGKLICTTNVPWNSSWSNRSYDEIWNNMTWIDWEREVGNYSQEIYRLIEQSQNQQEKNEQELLALDKWASLWNWFDITNWLWYIKIFIMIVGGLIGLRIVFTVLTIVNRVRKGYSPLSLQTLFPSPRGPDRPEGIGEEGGEQDRDRSVRLVNGFLSLVWDDLRSLCLFSYRQLRDFILIAARTVDRGLRRGWEALKYLWNLVKYWSQELKNSAISLFNSTAIVVAEGTDRIIEALQTGIRAVLHIPRRIRQGLERALL | > 50 | 0.042 | > 50 | 0.174
2 | HIV-1 Env, rebound clone, antibody arm (protein) MRVRGMLRNWQHLEKWGLLFLGLLIICSAKENLWVTVYYGVPVWKEATTTLFCASDAKGYEKEAHNVWATHACVPTDPNPQEIGLENVTENFNMWKNDMVEQMHTDIISLWDESLKPCVKITPLCVTLNCTDYCTTNCSEANDSSILEERKALQNCSFNMTTVVRDKKQKVSALFYRLDLTPLNNNNSSMEYRLITCNTSTITQACPKVSWDPIPIHYCAPAGYAILKCRDKKFNGTGPCKNVSTVQCTHGIKPVVSTQLLLNGSLAEEDIVIRSANISDNTKAIIVSLNESVLINCTRPNNNTRKGIHLGPGQTLYAAGEIVGNIRQAHCNIRGTQWNKTLERVRTKLSSLINKTIIFKPPVGGDLEVTMHSFTCRGEFFYCNTSGLFSESGNNSTSSNETIITLPCKIKQIINMWQGVGRAMYAPPVEGTITCNSNITGLLLTRDGGNNGTNDTFRPGGGDMRDNWRSELYKYKVVEIEPLGVAPTRARRQVVRRERRAVGIGAVFLGFLGAAGSTMGAASITLTVQARQLLSGIVQQQSNLLKAIEAQQHLLKLTVWGIKQLQARVLAVERYLKDQQLLGIWGCSGKLICTTNVPWNSSWSNRSYDEIWNNMTWIDWEREVGNYSQEIYRLIEQSQNQQEKNEQELLALDKWASLWNWFDITNWLWYIKIFIMIVGGLIGLRIVFTVLTIVNRVRKGYSPLSLQTLFPSPRGPDRPEGIGEEGGEQDRDRSVRLVNGFLSLVWDDLRSLCLFSYRQLRDFILIAARTVDRGLRRGWEALKYLWNLVKYWSQELKNSAISLFNSTAIVVAEGTDRIIEALQTGIRAVLHIPRRIRQGLERALL | > 50 | 0.064 | > 50 | 0.179
3 | HIV-1 Env, rebound clone, antibody arm (protein) MRVRGMLRNWQHLEKWGLLFLGLLIICSAKENLWVTVYYGVPVWKEATTTLFCASDAKGYEKEAHNVWATHACVPTDPNPQEIGLENVTENFNMWKNDMVEQMHTDIISLWDESLKPCVKITPLCVTLNCTDYCTTNCSKANDSSNLEERKALQNCSFNMTTVVRDKKQKVSALFYRLDLTPLNNNNSSMEYRLITCNTSTITQACPKVSWDPIPIHYCAPAGYAILKCRDKKFNGTGPCKNVSTVQCTHGIKPVVSTQLLLNGSLAEEDIVIRSANISDNTKAIIVSLNESVLINCTRPNNNTRKGIHLGPGQTLYAAGEIVGNIRQAHCNIRGTQWNKTLERVRTKLSSLINKTIIFKPPVGGDLEVTMHSFTCRGEFFYCNTSGLFSESGNNSTSSNETIITLPCKIKQIINMWQGVGRAMYAPPIEGTITCNSNITGLLLTRDGGNNGTNDTFRPGGGDMRDNWRSELYKYKVVEIEPIGVAPTRARRQVVRRERRAVGIGAVFLGFLGAAGSTMGAASITLTVQARQLLSGIVQQQSNLLKAIEAQQHLLKLTVWGIKQLQARVLAVERYLKDQQLLGIWGCSGKLICTTNVPWNSSWSNRSYDEIWNNMTWIDWEREVGNYSQEIYRLIEQSQNQQEKNEQELLALDKWASLWNWFDITNWLWYIKIFIMIVGGLIGLRIVFTVLTIVNRVRKGYSPLSLQTLFPSPRGPDRPEGIGEEGGEQDRDRSVRLVNGFLSLVWDDLRSLCLFSYRQLRDFILIAARTVDRGLRRGWEALKYLWNLVKYWSQELKNSAISLFNSTAIVVAEGTDRIIEALQTGIRAVLHIPRRIRQGLERALL | > 50 | 0.048 | > 50 | 0.141
4 | HIV-1 Env, rebound clone, antibody arm (protein) MRVRGMLRNWQHLEKWGLLFLGLLIICSAKENLWVTVYYGVPVWKEATTTLFCASDAKGYEKEAHNVWATHACVPTDPNPQEIGLENVTENFNMWKNDMVEQMHTDIISLWDESLKPCVKITPLCVTLNCTDYCTTNCSEANDSSILEERKALQNCSFNMTTVVRDKKQKVSALFYRLDLTPLNNNNSSTEYRLITCNTSTITQACPKVSWDPIPIHYCAPAGYAILKCRDKKFNGTGPCKNVSTVQCTHGIKPVVSTQLLLNGSLAEEDIVIRSANISDNTKAIIVSLNESVLINCTRPNNNTRKGIHLGPGQTLYAAGEIVGNIRQAHCSISGTQWNKTLERVRTKLSSLINKTIIFKPPVGGDLEVTMHSFTCRGEFFYCNTSGLFSESGNNSTSSNETIITLPCKIKQIINMWQGVGRAMYAPPIEGTITCNSNITGLLLTRDGGNNGTNDTFRPGGGDMRDNWRSELYKYKVVEIEPLGVAPTRARRQVVRRERRAVGIGAVFLGFLGAAGSTMGAASITLTVQARQLLSGIVQQQSNLLKAIEAQQHLLKLTVWGIKQLQARVLAVERYLKDQQLLGIWGCSGKLICTTNVPWNSSWSNRSYDEIWNNMTWIDWEREVGNYSQEIYRLIEQSQNQQEKNEQELLALDKWASLWNWFDITNWLWYIKIFIMIVGGLIGLRIVFTVLTIVNRVRKGYSPLSLQTLFPSPRGPDRPEGIGEEGGEQDRDRSVRLVNGFLSLVWDDLRSLCLFSYRQLRDFILIAARTVDRGLRRGWEALKYLWNLVKYWSQELKNSAISLFNSTAIVVAEGTDRIIEALQTGIRAVLHIPRRIRQGLERALL | > 50 | 0.067 | > 50 | 0.19
5 | HIV-1 Env, rebound clone, antibody arm (protein) MRVKGIRRNYQHLWKWGIMLLGMLMICSAVDNLWVTVYYGVPVWKEATTTLFCASDAKSYDTEAHNVWATHACVPTDPNPQEVKLENVTENFNMWKNNMVEQMHEDIISLWDQSLKPCVRLTPLCVTLNCNDVNSTRTVNTTMNSTTMSSEVDKGEIKNCSFNITTGMGIKNEKEYALFYKLDVVQIDNTSYRLISCNTSVVTQACPKISFEPIPIHYCAPAGFAILKCNDKKFNGTGPCKNVSTVQCTHGIRPVISTQLLLNGSLAEEEVIIRSENITDNAKTIIVQLNETVKINCTRPHNNTRKGIHMGPGKAFFTTGNVIGDIRQAHCNISGAEWKNTLKMVAKKLGDQFKNKTITFSASSGGDPEIEKHTFNCGGEFFYCDTTKLFNSTWNETTWNENRENENDTDITIQCRIKQIINMWQEVGKAIYAPPIEGHIRCSSNITGLLLTRDGGINNNQSNTTEVFRPQGGDMKNNWRSELYKYKVVKIEPLGVAPTKAKRRVVQREKRAIVGLGAVFVGFLGAAGSTMGAASLTLTVQARQLLSGIVQQQSNLLRAIEAQQHLLQLTVWGIKQLQARILAVERYLTDQQLLGIWGCSGKLICNTAVPWNASWSNKSLDTIWENMTWMEWDREISNYTSLIYSLIEESQNQQEKNEQELLALDKWANLWSWFNISNWLWYIRIFIMIVGGLIGLRIVFAVLSIVNRVRQGYSPLSFQTHLPAQRGPDRPAGIGEEGGERDKDTSTPLVAGFLAILWVDLRSLCLFSYHRLRDLLLIVARIVELLGRRGWEILKYWWNLLQYWSQELKNSAVSLLNTTAIAVAEGTDRVIEAVQRACRAILHIPRRIRQGAERILV | 0.234 | 0.578 | 0.487 | 0.066
6 | HIV-1 Env, rebound clone, antibody arm (protein) MKVMEIRKHSWRWGILFLGMLMICSAEDLWVTIYYGVPVWKEANTTLFCASDAKAYSTEKHNVWATHACVPTDPNPQEQNLVNVTEDFNMWKNNMVEQMHEDIISLWDQSLKPCVKLTPLCVTLECTDLRNATNTTATNTNNSLRDEGDMKNCSFNITTDRRDKVKKEYATFYNLDIVQIKEESNGNDSKIYRLVSCNTSVITQACPKISFEPIPIHYCAPAGFAILKCNDTDFNGIGTCRNVSIVQCTHGIRPVVSTQLLLNGSLAEKEVVIKSANFTDNTKTIIVQLKDPVEINCTRPNNNTRKGIHMGPGKAFYTVGQVIGDIRKAYCNIRWKKWNNTLGQIAKKLHDQYEMHNITFNRSSGGDPEIVTHSFNCGGEFFYCDTSGLFNSTWINGNWTNGTRIDTEGLNNGTFTLPCRIKQIINTWQEVGKAMYAPPIAGIIKCSTNITGLLLTRDGVNNSGHETFRPGGGDMRDNWRSELYKYKVVKLEPIGLAPTKAKRRVVQREKRAIGGIGALFLGFLGAAGSTMGAASLTLTVQARQLLSGIVQQQNNLLRAIEAQQHLLQLTVWGIKQLQARLLAVERFLHDQQLLGIWGCSGRLICTTAVPWNTSWSNKTLDRIWGNMTWMQWEREIENYTGLIYNLIEESQNQQENNEKELLALDKWANLWNWFDITKWLWYIKIFIMIVGGLIGVRIIFAVLSIVNRVRQGYSPLSFQTRLPTQRGPDRPEGIEEEGGERDRETSGSLATRLLAIIWIDLRSLCLFSYHRLRDLLLIAARIVELLGRRGWEILRYWWSLLQYWTQELKNSAVSLLNTTAVVVAEGTDRIIEAAQRAFRAFLNIPRRIRQGLERALL | > 50 | 0.129 | > 50 | 0.711

— the supplement of paper PMC12637763
